Anti-infective test results gathered from many reports (values: NIAID ChemDB through PubChem).

All rows: growth or infection tests; agent: Hepatitis C virus; cell line: Huh7; read-out: EC50

Neighbouring rows are from separate reports. An empty or dashed field is not shown. ECn: concentration that inhibits the pathogen or its effect by n%.

structure	strain or isolate	changes	method	conditions	result
O=C(O)c1c(-c2ccc(F)cc2)nc(SCc2nc3ccccc3[nH]2)[nH]c1=O			replicon / PCR		0.277 µM
CC[C@@H]1/C=C(\C)C[C@H](C)C[C@H](OC)[C@H]2O[C@@](O)(C(=O)C(=O)N3CCCC[C@H]3C(=O)O[C@H](/C(C)=C/[C@H]3CC[C@H](O)[C@H](OC)C3)[C@H](C)[C@@H](O)CC1=O)[C@H](C)C[C@@H]2OC					40 µM
COC(=O)[C@H](C)NP(=O)(OC[C@H]1O[C@@H](n2ccc3c(=O)[nH]c(N)nc32)[C@](C)(O)[C@@H]1O)Oc1ccccc1					<100 µM
CC(C)(C)OC(=O)N[C@@H]1CCCCCC=C[C@@H]2C[C@@]2(C(=O)O)NC(=O)[C@@H]2C[C@@H](OC(=O)N3Cc4ccccc4C3)CN2C1=O			ELISA		1.22 µM
C[C@@]1(O)[C@H](O)[C@@H](CO)O[C@H]1c1cnc2c(=O)[nH]c(N)nn12	GT-1b Con1		luciferase		>100 µM
C[C@@]1(O)[C@H](O)[C@@H](CO)O[C@H]1n1cnc2c(N)ncnc21	1b		luciferase		0.3717 µM
CSc1ccc2c(c1)C(N1CCN(C)CC1)Cc1ccccc1S2	JFH-1		luciferase		3.95 µM
CCC[C@H](NC(=O)[C@@H]1C2CCCC2CN1C(=O)[C@@H](NC(=O)[C@@H](NC(=O)c1cnccn1)C1CCCCC1)C(C)(C)C)C(=O)C(=O)N[C@@H](C)Cc1ccccc1			replicon		0.11 µM
O=C(/C=C/c1ccc(C(F)(F)F)cc1F)NO	GT1b		luciferase / replicon		0.5 µM
C[C@@]1(O)[C@H](O)[C@@H](CO)O[C@H]1n1cnc2c(=O)[nH]c(N)nc21				48 h	1.4 µM
C[C@]12C=CC(=O)C=C1CC[C@@H]1[C@@H]2C(=O)C[C@@]2(C)[C@H]1CC[C@]2(O)C(=O)CO					300 µM
O=C(O)CC1OCC=C2CN3CCC45c6ccccc6NC4C1C2CC35	JFH-1		luciferase		>10 µM
CCCC(NC(=O)[C@@H]1[C@@H]2CCC[C@@H]2CN1C(=O)[C@@H](NC(=O)OC(C)C)C(C)C)C(=O)C(=O)N[C@@H](C)c1ccccc1			replicon		>50 µM
Cc1cc(-c2ccc(N3C(=O)CC4(CCCC4)C3=O)c(C)c2)ccc1N1C(=O)CC2(CCCC2)C1=O	JFH-1		luciferase		>10 µM
C[C@@]1(O)[C@H](O)[C@@H](CO)O[C@H]1n1ccc2c(=O)[nH]c(N)nc21					<100 µM
N#Cc1c(-c2ccccc2-c2ccco2)nc(SCc2nc3ccccc3[nH]2)[nH]c1=O			replicon / PCR		0.129 µM
C[C@@]1(O)[C@H](O)[C@@H](CO)O[C@H]1n1cnc2c(N)ncnc21					<100 µM
C[C@@]1(O)[C@H](O)[C@@H](CO)O[C@H]1C1C=Nc2c(N)ncn[n+]21	GT1b		replicon		1.28 µM
CN(C)C(=O)c1ccc(-c2ccc(Cl)cc2)c(COc2ccc(-c3nc4cc(C(=O)O)ccc4n3C3CCCCC3)cc2)c1			replicon		0.84 µM
C#C[C@@]1(O)[C@H](O)[C@@H](CO)O[C@H]1n1ccc2c(N)ncnc21			luciferase / replicon		0.11 µM
C[C@@]1(O)[C@H](O)[C@@H](CO)O[C@H]1n1ccc2c(N)nc(N)nc21					<100 µM
Fc1ccccc1-c1nc2ccn(Cc3ccc(-c4ccc(C(F)(F)F)cc4C(F)(F)F)nn3)cc-2n1	1a		luciferase		0.0159 µM
CCN(CC)C1CCN(C(=O)Cn2c(-c3ccc(Cl)cc3)c(C3CCCCC3)c3ccc(C(=O)O)cc32)CC1			replicon		0.15 µM
CCCC(NC(=O)[C@@H]1C2CCC(=O)C2CN1C(=O)[C@@H](NC(=O)[C@@H](NC(=O)c1cnccn1)C(C)C)C(C)C)C(=O)C(=O)Nc1ccccc1			replicon		>25 µM
CC(C)(C)NC(=O)N[C@H](C(=O)N1C[C@H]2[C@@H]([C@H]1C(=O)NC(CC1CCC1)C(=O)C(N)=O)C2(C)C)C(C)(C)C	1a H77	T1280A S1358P D1431P D1431N F1809L I1839V	PCR		0.55 µM
C[C@@]1(O)[C@H](O)[C@@H](CO)O[C@H]1c1cnc2c(N)ncnn12	GT-1b Con1		luciferase		1.3 µM
O=C(O)c1c(-c2ccco2)nc(NCc2nc3ccccc3[nH]2)[nH]c1=O			replicon / PCR		0.87 µM
CCCc1nc(NC(=O)c2ccccc2)nc(NC(=O)c2ccccc2)n1	JFH-1		luciferase		>10 µM
CCC[C@H](NC(=O)[C@@H]1[C@H]2CCC[C@H]2CN1C(=O)[C@@H](NC(=O)[C@@H](NC(=O)c1cnccn1)C1CCCCC1)C(C)(C)C)C(=O)C(=O)NC1CC1			replicon		0.31 µM
CNC(=O)c1c(-c2ccc(F)cc2)oc2cc(N(CCO)S(C)(=O)=O)c(C3CC3)cc12	2a		luciferase		0.1564 µM
Cc1nc(N=C(N)N(C)C)[nH]c(=O)c1C	JFH-1		luciferase		>10 µM
Nc1ncnc2c1ccn2[C@@H]1O[C@H](CO)[C@@H](O)[C@H]1O	GT1b		cytopathic effect		0.08 µM
N#Cc1c(-c2ccccc2)nc(NCc2nc3ccccc3[nH]2)[nH]c1=O			replicon / PCR		0.263 µM
CC(Cc1ccc(O)c(O)c1)C(C)Cc1ccc(O)c(O)c1			luciferase		30 µM

The first 4 rows once more:

structure	strain or isolate	changes	method	conditions	result
O=C(O)c1c(-c2ccc(F)cc2)nc(SCc2nc3ccccc3[nH]2)[nH]c1=O			replicon / PCR		0.277 µM
CC[C@@H]1/C=C(\C)C[C@H](C)C[C@H](OC)[C@H]2O[C@@](O)(C(=O)C(=O)N3CCCC[C@H]3C(=O)O[C@H](/C(C)=C/[C@H]3CC[C@H](O)[C@H](OC)C3)[C@H](C)[C@@H](O)CC1=O)[C@H](C)C[C@@H]2OC					40 µM
COC(=O)[C@H](C)NP(=O)(OC[C@H]1O[C@@H](n2ccc3c(=O)[nH]c(N)nc32)[C@](C)(O)[C@@H]1O)Oc1ccccc1					<100 µM
CC(C)(C)OC(=O)N[C@@H]1CCCCCC=C[C@@H]2C[C@@]2(C(=O)O)NC(=O)[C@@H]2C[C@@H](OC(=O)N3Cc4ccccc4C3)CN2C1=O			ELISA		1.22 µM